Results of unrelated studies side by side (data: NIAID ChemDB).

Shared fields: whole-cell or culture tests; agent: Mycobacterium avium complex; read-out: MIC

Lines come from different laboratories, so protocols vary. Two numbers with a dash give a range or band.

COc1ccc(OC)c(Sc2ccncc2)c1 ; strain or isolate: NJ211 ; result: >12.8 µg/mL
COc1cccc2c(=O)n3c(nc12)C(=O)c1cc(F)ccc1-3 ; strain or isolate: 19075 ; result: 1 µg/mL
C[C@@H]1CN(c2c(F)c(N)c3c(=O)c(C(=O)O)cn(C4CC4)c3c2F)C[C@H](C)N1 ; strain or isolate: N-981 (HIV+) ; result: 0.5 µg/mL
COc1ccc(NCc2cnc3nc(N)nc(N)c3c2C)cc1OC ; strain or isolate: NJ211 ; result: ≤0.13 µg/mL
CC[C@H]1OC(=O)[C@H](C)[C@@H](O[C@H]2C[C@@](C)(OC)[C@@H](O)[C@H](C)O2)[C@H](C)[C@@H](O[C@@H]2O[C@H](C)C[C@H](N(C)C)[C@H]2O)[C@](C)(O)C[C@@H](C)/C(=N\OC)[C@H](C)[C@@H](O)[C@]1(C)O ; strain or isolate: 20039 ; result: 3.13 µg/mL
COc1ccccc1CSc1nc(=O)[nH]c2nc[nH]c12 ; strain or isolate: NJ211 ; result: >12.8 µg/mL
CC[C@H]1OC(=O)[C@H](C)[C@@H](O[C@H]2C[C@@](C)(OC)[C@@H](OC(C)=O)[C@H](C)O2)[C@H](C)[C@@H](O[C@@H]2O[C@H](C)C[C@H](N(C)C)[C@H]2O)C(C)(O)C[C@@H](C)/C(=N\OCCOc2ccccc2)[C@H](C)[C@@H](O)[C@]1(C)O ; strain or isolate: 20039 (clarithromycin-susceptible) ; result: 1.56 µg/mL
CC[C@H]1OC(=O)[C@H](C)[C@@H](O[C@H]2C[C@@](C)(OC)[C@@H](O)[C@H](C)O2)[C@H](C)[C@@H](O[C@@H]2O[C@H](C)C[C@H](N(C)C)[C@H]2O)[C@](C)(OC)C[C@@H](C)C(=O)[C@H](C)[C@@H](O)[C@]1(C)O ; strain or isolate: 20039 ; result: 0.78 µg/mL
CC1(C)N=C(N)N=C(N)N1OCCCOc1cc(Cl)c(Cl)cc1Cl ; strain or isolate: 690 ; result: 1 µg/mL
NNC(=O)c1ccncc1 ; strain or isolate: N-325 (HIV-) ; result: 1 µg/mL
Cc1cccc(C)c1Sc1ncnc2nc[nH]c12 ; strain or isolate: NJ211 ; result: >12.8 µg/mL
CC[C@H]1OC(=O)[C@H](C)[C@@H](O[C@H]2C[C@@](C)(OC)[C@@H](OC(C)=O)[C@H](C)O2)[C@H](C)[C@@H](O[C@@H]2O[C@H](C)C[C@H](N(C)C)[C@H]2OC(=O)NNc2ccccc2)C(C)(O)C[C@@H](C)/C(=N\OCCCC2CCCCC2)[C@H](C)[C@@H](O)[C@]1(C)O ; strain or isolate: 20096 (clarithromycin-resistant) ; result: 0.78 µg/mL
CCCCCCCCCCO/N=C1\[C@H](C)CC(C)(O)[C@H](O[C@@H]2O[C@H](C)C[C@H](N(C)C)[C@H]2O)[C@@H](C)[C@H](OC2C[C@@](C)(OC)[C@@H](O)[C@H](C)O2)[C@@H](C)C(=O)O[C@H](CC)[C@@](C)(O)[C@H](O)[C@H]1C ; strain or isolate: 20092 ; result: 25 µg/mL
CCCNC(=O)OCCn1sc2ccccc2c1=O ; strain or isolate: AN2 ; result: >32 µg/mL
O=C1c2cc(I)ccc2-n2c1nc1c(Br)cc(Br)c(Cl)c1c2=O ; strain or isolate: 19075 ; result: 1 µg/mL
CO[C@H]1/C=C/O[C@@]2(C)Oc3c(C)c(O)c4c(O)c(c5c(c4c3C2=O)NC2(CCN(CC(C)C)CC2)N=5)=NC(=O)/C(C)=C\C=C\[C@H](C)[C@H](O)[C@@H](C)[C@@H](O)[C@@H](C)[C@H](OC(C)=O)[C@@H]1C ; strain or isolate: ATCC49601 ; result: 0.5 µg/mL
CC[C@H]1OC(=O)[C@H](C)[C@@H](OC2C[C@@](C)(OC)[C@@H](O)[C@H](C)O2)[C@H](C)[C@@H](O[C@@H]2O[C@H](C)C[C@H](N(C)C)[C@H]2O)C(C)(O)C[C@@H](C)/C(=N\OCCCCOc2ccccc2)[C@H](C)[C@@H](O)[C@]1(C)O ; strain or isolate: 20096 ; result: 6.25 µg/mL
CC[C@H]1OC(=O)[C@H](C)[C@@H](OC2C[C@@](C)(OC)[C@@H](O)[C@H](C)O2)[C@H](C)[C@@H](O[C@@H]2O[C@H](C)C[C@H](N(C)C)[C@H]2O)C(C)(O)C[C@@H](C)/C(=N\OCCCOc2ccccc2)[C@H](C)[C@@H](O)[C@]1(C)O ; strain or isolate: 20096 (clarithromycin-resistant) ; result: 3.13 µg/mL
CC1(C)N=C(N)N=C(N)N1OCCCOc1cc(Cl)c(Cl)cc1Cl ; strain or isolate: DW10 ; result: 2 µg/mL
CCCCNC(=O)OCCn1sc2ccccc2c1=O ; strain or isolate: AN3 ; result: 16 µg/mL
Cc1c(CNc2cccc3c2CCCC3)cnc2nc(N)nc(N)c12 ; strain or isolate: NJ3404 ; result: ≤0.13 µg/mL
COc1cccc(CSc2ccncc2)c1 ; strain or isolate: NJ211 ; result: >12.8 µg/mL
Nc1ccc(S(=O)(=O)c2ccc(N)cc2)cc1 ; strain or isolate: LPR ; result: 32 µg/mL
CCCCCCCCCCCCCCCCO/N=C1\[C@H](C)CC(C)(O)[C@H](O[C@@H]2O[C@H](C)C[C@H](N(C)C)[C@H]2O)[C@@H](C)[C@H](OC2C[C@@](C)(OC)[C@@H](O)[C@H](C)O2)[C@@H](C)C(=O)O[C@H](CC)[C@@](C)(O)[C@H](O)[C@H]1C ; strain or isolate: 20096 ; result: >50 µg/mL
C[C@@H]1CN(c2c(F)c(N)c3c(=O)c(C(=O)O)cn(C4CC4)c3c2F)C[C@H](C)N1 ; strain or isolate: ATCC 15769 ; result: 0.5 µg/mL
CCc1nc(N)nc(N)c1-c1ccc(Cl)cc1 ; strain or isolate: DW1 ; result: 16 µg/mL
COc1ccc(/C(C)=N/NC(N)=S)cc1 ; strain or isolate: 100 ; result: 0.125 µg/mL
CC[C@H]1OC(=O)[C@H](C)[C@@H](O[C@H]2C[C@@](C)(OC)[C@@H](OC(C)=O)[C@H](C)O2)[C@H](C)[C@@H](O[C@@H]2O[C@H](C)C[C@H](N(C)C)[C@H]2OC(=O)NNCc2ccccc2)C(C)(O)C[C@@H](C)/C(=N\OCCCC2CCCCC2)[C@H](C)[C@@H](O)[C@]1(C)O ; strain or isolate: 20039 (clarithromycin-susceptible) ; result: 0.78 µg/mL
NC[C@H]1O[C@H](O[C@H]2[C@H](O)[C@@H](O[C@H]3O[C@H](CO)[C@@H](O)[C@H](N)[C@H]3O)[C@H](N)C[C@@H]2N)[C@H](O)[C@@H](O)[C@@H]1O ; strain or isolate: CIPT 140310003 (smooth) ; result: 10 µg/mL
Cc1ccc(F)c(NCc2cnc3nc(N)nc(N)c3c2C)c1.O ; strain or isolate: NJ168 ; result: ≤0.13 µg/mL
CO[C@H]1/C=C/O[C@@]2(C)Oc3c(C)c(O)c4c(O)c(c5c(c4c3C2=O)NC2(CCN(CC(C)C)CC2)N=5)=NC(=O)/C(C)=C\C=C\[C@H](C)[C@H](O)[C@@H](C)[C@@H](O)[C@@H](C)[C@H](OC(C)=O)[C@@H]1C ; strain or isolate: N-325 (HIV-) ; result: 0.8 µg/mL
CC[C@H]1OC(=O)[C@H](C)[C@@H](O[C@H]2C[C@@](C)(OC)[C@@H](O)[C@H](C)O2)[C@H](C)[C@@H](O[C@@H]2O[C@H](C)C[C@H](N(C)C)[C@H]2O)[C@](C)(O)C[C@@H](C)/C(=N\OCOCCOC)[C@H](C)[C@@H](O)[C@]1(C)O ; strain or isolate: MO-1 ; result: 4 µg/mL
CCOC(=O)c1ccc2c(c1)C(=O)c1nc3ccccc3c(=O)n1-2 ; strain or isolate: 19075 ; result: 1 µg/mL
CC(C)N=C(N)/N=C(\N)Nc1ccc(Cl)cc1 ; strain or isolate: FAR ; result: 64 µg/mL
OCCn1sc2ccccc2c1=S ; strain or isolate: ISS 486 ; result: 4 µg/mL
NNC(=O)c1ccncc1 ; strain or isolate: 13013 ; result: 20–25 µg/mL
COc1ccc(SCc2cnc3nc(N)nc(N)c3c2C)cc1OC ; strain or isolate: NJ3404 ; result: ≤0.13 µg/mL
CO[C@H]1/C=C/O[C@@]2(C)Oc3c(C)c(O)c4c(O)c(c5c(c4c3C2=O)NC2(CCN(CC(C)C)CC2)N=5)=NC(=O)/C(C)=C\C=C\[C@H](C)[C@H](O)[C@@H](C)[C@@H](O)[C@@H](C)[C@H](OC(C)=O)[C@@H]1C ; strain or isolate: CIPT 140310002 ; result: 0.5 µg/mL
Cc1cccc2nc3n(c(=O)c12)-c1ccccc1C3=O ; strain or isolate: 19075 ; result: 5 µg/mL
CC(C)(C)c1ccc(CSc2nc(=O)[nH]c3nc[nH]c23)cc1 ; strain or isolate: NJ211 ; result: >12.8 µg/mL
C[C@@H](O)[C@H]1C(=O)N2C(C(=O)O)=C(SCCN=CN)C[C@H]12 ; strain or isolate: CIPT 140310006 ; result: 10 µg/mL
CC[C@H]1OC(=O)[C@H](C)[C@@H](O[C@H]2C[C@@](C)(OC)[C@@H](O)[C@H](C)O2)[C@H](C)[C@@H](O[C@@H]2O[C@H](C)C[C@H](N(C)C)[C@H]2O)[C@](C)(OC)C[C@@H](C)C(=O)[C@H](C)[C@@H](O)[C@]1(C)O ; strain or isolate: Isolate 90-08027 ; result: 2 µg/mL
CC[C@H]1OC(=O)[C@H](C)[C@@H](OC2C[C@@](C)(OC)[C@@H](O)[C@H](C)O2)[C@H](C)[C@@H](O[C@@H]2O[C@H](C)C[C@H](N(C)C)[C@H]2O)C(C)(O)C[C@@H](C)/C(=N\OCCC2CCCCC2)[C@H](C)[C@@H](O)[C@]1(C)O ; strain or isolate: 20092 ; result: >50 µg/mL
CC[C@H]1OC(=O)[C@H](C)[C@@H](O[C@H]2C[C@@](C)(OC)[C@@H](O)[C@H](C)O2)[C@H](C)[C@@H](O[C@@H]2O[C@H](C)C[C@H](N(C)C)[C@H]2O)[C@](C)(O)C[C@@H](C)CN(C)[C@H](C)[C@@H](O)[C@]1(C)O ; strain or isolate: 101 ; result: 8 µg/mL
CC(C)(C)NC(=O)OCCn1sc2ccccc2c1=S ; strain or isolate: AN3 ; result: 2 µg/mL
Cc1cccc2nc3n(c(=O)c12)-c1ccc(F)cc1C3=O ; strain or isolate: 19075 ; result: 1 µg/mL
CCCCO/N=C1\[C@H](C)CC(C)(O)[C@H](O[C@@H]2O[C@H](C)C[C@H](N(C)C)[C@H]2O)[C@@H](C)[C@H](OC2C[C@@](C)(OC)[C@@H](O)[C@H](C)O2)[C@@H](C)C(=O)O[C@H](CC)[C@@](C)(O)[C@H](O)[C@H]1C ; strain or isolate: 20092 ; result: >50 µg/mL
CC1(C)S[C@@H]2[C@H](NC(=O)C(C(=O)O)c3ccccc3)C(=O)N2[C@H]1C(=O)O ; strain or isolate: CIPT 140310003 (rough) ; result: 25 µg/mL
COc1cc(NCc2cnc3nc(N)nc(N)c3c2C)cc(OC)c1 ; strain or isolate: NJ211 ; result: ≤0.13 µg/mL
O=C1c2cc(F)ccc2-n2c1nc1ccccc1c2=O ; strain or isolate: 19075 ; result: 0.25 µg/mL
O=c1c2ccccc2sn1CCO ; strain or isolate: AN3 ; result: 32 µg/mL
CO[C@H]1/C=C/O[C@@]2(C)Oc3c(C)c(O)c4c(=O)c(c5oc6cc(N7CCN(CC(C)C)CC7)cc(=O)c6nc5c4c3=C2O)NC(=O)/C(C)=C\C=C\[C@H](C)[C@H](O)[C@@H](C)[C@@H](O)[C@@H](C)[C@H](OC(C)=O)[C@@H]1C ; strain or isolate: N-976 (HIV+) ; result: 0.1 µg/mL

A second listing of 6 rows from above:

compound	strain or isolate	result
COc1cccc(CSc2ccncc2)c1	NJ211	>12.8 µg/mL
Cc1cccc2nc3n(c(=O)c12)-c1ccccc1C3=O	19075	5 µg/mL
CC[C@H]1OC(=O)[C@H](C)[C@@H](OC2C[C@@](C)(OC)[C@@H](O)[C@H](C)O2)[C@H](C)[C@@H](O[C@@H]2O[C@H](C)C[C@H](N(C)C)[C@H]2O)C(C)(O)C[C@@H](C)/C(=N\OCCCOc2ccccc2)[C@H](C)[C@@H](O)[C@]1(C)O	20096 (clarithromycin-resistant)	3.13 µg/mL
Nc1ccc(S(=O)(=O)c2ccc(N)cc2)cc1	LPR	32 µg/mL
CC[C@H]1OC(=O)[C@H](C)[C@@H](O[C@H]2C[C@@](C)(OC)[C@@H](O)[C@H](C)O2)[C@H](C)[C@@H](O[C@@H]2O[C@H](C)C[C@H](N(C)C)[C@H]2O)[C@](C)(OC)C[C@@H](C)C(=O)[C@H](C)[C@@H](O)[C@]1(C)O	20039	0.78 µg/mL
CC[C@H]1OC(=O)[C@H](C)[C@@H](O[C@H]2C[C@@](C)(OC)[C@@H](O)[C@H](C)O2)[C@H](C)[C@@H](O[C@@H]2O[C@H](C)C[C@H](N(C)C)[C@H]2O)[C@](C)(OC)C[C@@H](C)C(=O)[C@H](C)[C@@H](O)[C@]1(C)O	Isolate 90-08027	2 µg/mL